Compound potency records, mixed from different reports. Data source: NIAID ChemDB in PubChem.

All rows: growth or infection tests; organism: Candida albicans

Conditions beyond the fields shown may differ between rows. A number after MIC or MFC names an inhibition level or a share of isolates. Blank or dashed fields: not listed here. ECn is the concentration giving n% inhibition of infection, replication or growth.

{"smiles": "COc1ccc(/C=C2\\Sc3nnc(COc4ccccc4Cl)n3N=C2c2cc(F)c(Cl)cc2Cl)cc1OC", "read-out": "MIC", "result": "12.5 µg/mL"}
{"smiles": "Oc1ccccc1C1O[C@@H](COCc2ccccc2)[C@H](COCc2ccccc2)O1", "read-out": "MIC", "read by": "broth dilution", "strain": "ATCC 10231", "result": "312.5 µg/mL"}
{"smiles": "CCCCCCCCCC[n+]1ccc(/C=C/C(=O)c2ccc(OC)cc2)cc1", "read-out": "MIC", "result": "<6.87 µg/mL"}
{"smiles": "C=C1C2CC[C@H](C=O)C(O)(C=O)[C@@]2(C)CC[C@@H]1C", "read-out": "MIC", "strain": "B311", "result": "1.56 µg/mL"}
{"smiles": "Fc1cc(C2=Nn3c(COc4ccccc4Cl)nnc3S/C2=C\\c2ccc(Cl)cc2)c(Cl)cc1Cl", "read-out": "MIC", "result": "12.5 µg/mL"}
{"smiles": "Cc1nn([C@H](C)[C@](O)(Cn2cncn2)c2ccc(F)cc2F)c2ccc(C(F)(F)F)cc12", "read-out": "MIC80", "strain": "ATCC 36082", "result": "≤0.015 µg/mL"}
{"smiles": "Cc1cc(OCc2nnc3n2N=C(c2cc(F)c(Cl)cc2Cl)/C(=C/c2ccc(Cl)cc2)S3)ccc1Cl", "read-out": "MIC", "result": "12.5 µg/mL"}
{"smiles": "C=CCc1ccc(O)c(OC)c1", "read-out": "MIC90", "read by": "turbidity", "strain": "2508", "result": "475 µg/mL"}
{"smiles": "C[C@H]1[C@H](O)[C@@H](C)/C=C/C=C/C=C/C=C/C=C/C=C/C=C/[C@H](O[C@@H]2O[C@H](C)[C@@H](O)[C@H](N)[C@@H]2O)C[C@@H]2O[C@](O)(C[C@@H](O)C[C@@H](O)CC[C@H](O)[C@@H](O)C[C@@H](O)CC(=O)O[C@H]1C)C[C@H](O)[C@H]2C(=O)O", "read-out": "MIC", "strain": "ATCC64552", "result": "2 µg/mL"}
{"smiles": "CC(=O)N1CCN(c2ccc(OC[C@H]3CO[C@](Cn4ccnc4)(c4ccc(Cl)cc4Cl)O3)cc2)CC1", "read-out": "MIC", "read by": "broth dilution", "strain": "ATCC 66027", "result": "30 µg/mL"}
{"smiles": "CCCCCCCC[n+]1cccc(/C=C/C(=O)c2ccccc2OC)c1", "read-out": "MIC", "result": "<7.34 µg/mL"}
{"smiles": "CCc1nn([C@H](C)[C@](O)(Cn2cncn2)c2ccc(F)cc2F)c2ccc(F)cc12", "read-out": "MIC80", "strain": "ATCC 36082", "result": "≤0.015 µg/mL"}
{"smiles": "CCC(C)n1ncn(-c2ccc(N3CCN(c4ccc(OC[C@H]5CO[C@](Cn6cncn6)(c6ccc(Cl)cc6Cl)O5)cc4)CC3)cc2)c1=O", "read-out": "MIC50", "strain": "32 strains", "result": "0.06 µg/mL"}
{"smiles": "Clc1ccccc1C(c1ccccc1)(c1ccccc1)n1ccnc1", "conditions": "24 h", "read-out": "MIC", "strain": "Clinical isolates", "result": "2 µg/mL"}
{"smiles": "Cc1ccccc1N/N=c1/sc2nnc(-c3ccncc3)n2nc1C", "read-out": "MIC", "read by": "broth dilution", "strain": "ATCC 66027", "result": ">100 µg/mL"}
{"smiles": "COc1ccc(CC(c2ccc(OC)cc2)n2cncn2)cc1", "read-out": "MIC90", "strain": "28 strains", "result": ">256 µg/mL"}
{"smiles": "CC(C)[C@@H]1CC=CC2C3[C@](C)(O)[C@H](O)C[C@H](Br)[C@@]3(C)CC[C@@]21CBr", "read-out": "EC50", "strain": "ATCC 10231", "result": ">100 µM"}
{"smiles": "Cc1nn2c(-c3ccncc3)nnc2s/c1=N/Nc1ccc(S(N)(=O)=O)cc1", "read-out": "MIC", "read by": "broth dilution", "strain": "ATCC 66027", "result": "12.5 µg/mL"}
{"smiles": "C[C@H]1[C@H](O)[C@@H](C)/C=C/C=C/C=C/C=C/C=C/C=C/C=C/[C@H](O[C@@H]2O[C@H](C)[C@@H](O)[C@H](N)[C@@H]2O)C[C@@H]2O[C@](O)(C[C@@H](O)C[C@@H](O)CC[C@H](O)[C@@H](O)C[C@@H](O)CC(=O)O[C@H]1C)C[C@H](O)[C@H]2C(=O)O", "read-out": "MIC", "strain": "ATCC 90018", "result": "0.5 µg/mL"}
{"smiles": "C[C@@H](n1cc2c([N+](=O)[O-])cccc2n1)[C@](O)(Cn1cncn1)c1ccc(F)cc1F", "read-out": "MIC80", "strain": "ATCC 36082", "result": "≤0.015 µg/mL"}
{"smiles": "Fc1cc(C2=Nn3c(COc4ccc(Cl)cc4Cl)nnc3S/C2=C\\c2ccc(Cl)cc2)c(Cl)cc1Cl", "read-out": "MIC", "result": "6 µg/mL"}
{"smiles": "COc1ccc(C(Cc2ccc(Cl)cc2)n2cncn2)cc1", "read-out": "EC50", "strain": "28 strains", "result": "<256 µg/mL"}
{"smiles": "COc1ccc(C=NC2C3CC4CC(C3)CC2C4)cc1OC", "read-out": "MIC", "result": "128 µg/mL"}
{"smiles": "COC(=O)C1OC(c2ccccc2O)OC1C(=O)OC", "read-out": "MIC", "read by": "broth dilution", "strain": "ATCC 10231", "result": "312.5 µg/mL"}
{"smiles": "CCOC1Oc2ccc(C)cc2C(=O)/C1=C\\Nc1ccc(C(=O)O)c(O)c1", "read-out": "MIC", "result": "10 µg/mL"}
{"smiles": "COc1ccc(C2NC(=O)Nc3[nH]c(=O)sc32)cc1OC", "read-out": "MIC", "read by": "agar diffusion", "strain": "ATCC 10231", "result": "312.5 µg/mL"}
{"smiles": "COC1=NC(C)CC(=O)N1", "read-out": "MIC", "result": ">100 µg/mL"}
{"smiles": "Cc1nn([C@H](C)[C@](O)(Cn2cncn2)c2ccc(F)cc2F)c2cccc(F)c12", "read-out": "MIC80", "strain": "ATCC 36082", "result": "≤0.015 µg/mL"}
{"smiles": "COc1ccccc1C(=O)/C=C/c1ccncc1", "read-out": "MIC", "result": "15.5 µg/mL"}
{"smiles": "CCCCCOc1ccc(-c2cc(-c3ccc(C(=O)N[C@H]4C[C@@H](O)[C@@H](O)NC(=O)[C@@H]5[C@@H](O)[C@@H](C)CN5C(=O)[C@H]([C@H](O)CC(N)=O)NC(=O)[C@H]([C@H](O)[C@@H](O)c5ccc(O)c(OS(=O)(=O)O)c5)NC(=O)[C@@H]5C[C@@H](O)CN5C(=O)[C@H]([C@@H](C)O)NC4=O)cc3)no2)cc1", "read-out": "MIC", "strain": "2 isolates", "result": "0.05 µg/mL"}
{"smiles": "C[C@@H](N1CCN(c2ccc(-n3cnnn3)cc2)C1=O)[C@](O)(Cn1cncn1)c1ccc(F)cc1F", "read-out": "MIC", "strain": "TIMM1756", "result": "4 µg/mL"}
{"smiles": "C[C@@H](n1ncc2ccccc21)[C@](O)(Cn1cncn1)c1ccc(F)cc1F", "read-out": "MIC80", "strain": "ATCC 36082", "result": "≤0.015 µg/mL"}
{"smiles": "Fc1cc(C2=Nn3c(CNc4ccccc4)nnc3S/C2=C\\c2ccc3c(c2)OCO3)c(Cl)cc1Cl", "read-out": "MIC", "result": "12.5 µg/mL"}
{"smiles": "COc1ccc(CC(c2ccc(OC)cc2)n2cnnc2)cc1", "read-out": "EC50", "strain": "28 strains", "result": "<256 µg/mL"}
{"smiles": "Cn1cccc1-c1n[nH]c(=O)n1CCCCCCn1c(-c2cccn2C)n[nH]c1=O", "read-out": "MIC", "strain": "ATCC 90028", "result": "7.5 µg/mL"}
{"smiles": "C[C@@H](N1CCN(c2ccc(-n3cnnn3)cc2)C1=O)[C@@](O)(Cn1cncn1)c1ccc(F)cc1F", "read-out": "MIC", "strain": "TIMM1756", "result": "4 µg/mL"}
{"smiles": "O=C(O[C@@H]1COC(=O)c2cc(O)c(O)c(O)c2-c2c(cc(O)c(O)c2O)C(=O)OC1C1OC(=O)c2cc(O)c(O)c(O)c2-c2c(O)c(O)c(O)c3c2C(=O)OC1[C@H]3O)c1cc(O)c(O)c(O)c1", "read-out": "MIC", "read by": "broth dilution", "strain": "ATCC 64548", "result": "580 µg/mL"}
{"smiles": "CCC(C)n1ncn(-c2ccc(N3CCN(c4ccc(OC[C@@H]5CO[C@@](Cn6cncn6)(c6ccc(F)cc6F)O5)cc4)CC3)cc2)c1=O", "read-out": "MIC90", "strain": "10 strains", "result": "0.03 µg/mL"}
{"smiles": "Cc1n[nH]c(=O)n1CCCCCCn1c(C)n[nH]c1=O", "read-out": "MIC", "strain": "ATCC 90028", "result": "7.5 µg/mL"}
{"smiles": "C[C@@H](n1cc2ccc([N+](=O)[O-])cc2n1)[C@](O)(Cn1cncn1)c1ccc(F)cc1F", "read-out": "MIC80", "strain": "ATCC 36082", "result": "0.063 µg/mL"}
{"smiles": "CCC(c1ccc(OC)cc1)C(O)c1ccc(OC)cc1", "read-out": "MIC50", "strain": "28 strains", "result": ">256 µg/mL"}
{"smiles": "COc1ccc(C=NC23CC4CC(CC(C4)C2)C3)cc1OC", "read-out": "MIC", "result": "128 µg/mL"}
{"smiles": "CC[C@@H](c1ccc(Cl)cc1)[C@@H](c1ccc(OC)cc1)n1cnnc1", "read-out": "MIC50", "strain": "28 strains", "result": "128 µg/mL"}
{"smiles": "COc1cc(NC(C)CCCN)c2nc(C(C)(C)C)cc(C)c2c1Oc1cccc(C(F)(F)F)c1", "read-out": "MFC", "result": ">20 µg/mL"}
{"smiles": "Cc1ccc(N/N=c2/sc3nnc(-c4ccncc4)n3nc2C)cc1", "read-out": "MIC", "read by": "broth dilution", "strain": "ATCC 66027", "result": ">100 µg/mL"}
{"smiles": "CCCCCCCCCC[n+]1cccc(/C=C/C(=O)c2cccc(OC)c2)c1", "read-out": "MIC", "result": "<7.5 µg/mL"}
{"smiles": "CC[C@@H]([C@H](C)O)n1ncn(-c2ccc(N3CCN(c4ccc(OC[C@@H]5CO[C@@](Cn6cncn6)(c6ccc(F)cc6F)C5)cc4)CC3)cc2)c1=O", "read-out": "MIC90", "result": "0.063 µg/mL"}
{"smiles": "O=c1[nH]nc(-c2ccccc2)n1CCCCCCn1c(-c2ccccc2)n[nH]c1=O", "read-out": "MIC", "result": "1.87 µg/mL"}
{"smiles": "CC(C)[C@@H]1CC=CC2C3[C@@](C)(C=CC(=O)[C@@]3(C)O)CC[C@@]21CBr", "read-out": "EC50", "strain": "ATCC 10231", "result": ">100 µM"}
{"smiles": "Fc1cc(C2=Nn3c(CNc4ccc(Cl)cc4)nnc3S/C2=C\\c2ccc(Cl)cc2Cl)c(Cl)cc1Cl", "read-out": "MIC", "result": "6 µg/mL"}
{"smiles": "CC(=O)c1ccc2c(c1O)C=CC(C)(CO)O2", "read-out": "MIC", "result": "50 µg/mL"}
{"smiles": "C[C@H]1[C@H](O)[C@@H](C)/C=C/C=C/C=C/C=C/C=C/C=C/C=C/[C@H](O[C@@H]2O[C@H](C)[C@@H](O)[C@H](N)[C@@H]2O)C[C@@H]2O[C@](O)(C[C@@H](O)C[C@@H](O)CC[C@H](O)[C@@H](O)C[C@@H](O)CC(=O)O[C@H]1C)C[C@H](O)[C@H]2C(=O)O", "read-out": "MIC90", "result": "1 µg/mL"}
{"smiles": "CCCCCCCCCCCC[n+]1ccc(/C=C/C(=O)c2cccc(OC)c2)cc1", "read-out": "MIC", "result": "<7.65 µg/mL"}
{"smiles": "Fc1cc(C2=Nn3c(COc4ccc(Cl)cc4)nnc3S/C2=C\\c2ccc3c(c2)OCO3)c(Cl)cc1Cl", "read-out": "MIC", "result": "6 µg/mL"}

A second listing of 8 rows from above:

smiles	conditions	read-out	read by	strain	result
CCC(C)n1ncn(-c2ccc(N3CCN(c4ccc(OC[C@H]5CO[C@](Cn6cncn6)(c6ccc(Cl)cc6Cl)O5)cc4)CC3)cc2)c1=O		MIC50		32 strains	0.06 µg/mL
Cc1cc(OCc2nnc3n2N=C(c2cc(F)c(Cl)cc2Cl)/C(=C/c2ccc(Cl)cc2)S3)ccc1Cl		MIC			12.5 µg/mL
C=C1C2CC[C@H](C=O)C(O)(C=O)[C@@]2(C)CC[C@@H]1C		MIC		B311	1.56 µg/mL
C[C@H]1[C@H](O)[C@@H](C)/C=C/C=C/C=C/C=C/C=C/C=C/C=C/[C@H](O[C@@H]2O[C@H](C)[C@@H](O)[C@H](N)[C@@H]2O)C[C@@H]2O[C@](O)(C[C@@H](O)C[C@@H](O)CC[C@H](O)[C@@H](O)C[C@@H](O)CC(=O)O[C@H]1C)C[C@H](O)[C@H]2C(=O)O		MIC90			1 µg/mL
CC[C@@H](c1ccc(Cl)cc1)[C@@H](c1ccc(OC)cc1)n1cnnc1		MIC50		28 strains	128 µg/mL
COC1=NC(C)CC(=O)N1		MIC			>100 µg/mL
Oc1ccccc1C1O[C@@H](COCc2ccccc2)[C@H](COCc2ccccc2)O1		MIC	broth dilution	ATCC 10231	312.5 µg/mL
COc1ccccc1C(=O)/C=C/c1ccncc1		MIC			15.5 µg/mL